Measured values from several laboratories, pooled; numbers as filed in NIAID ChemDB.

All rows: whole-cell or culture tests; organism: Varicella zoster virus; cells: HEL; measure: EC50

ECn: concentration that inhibits the pathogen or its effect by n%.

| structure | strain or isolate | method | value |
|---|---|---|---|
| Nc1ncnc2c1ncn2C[C@H]1COP(=O)(O)CO1 | YS/R (TK-) | plaque count | 0.04 µM |
| Nc1nc(Cl)c2nnn(C[C@H]3CC[C@@H](CO)C3)c2n1 | OKA | plaque count | >200 µg/mL |
| Nc1nccc2c1ncn2C[C@@H](CO)OCP(=O)(O)O | OKA (TK+) | plaque count | 0.13 µM |
| Nc1nc2c(ncn2C[C@H]2CC[C@@H](CO)C2)c(=O)[nH]1 | YS | plaque count | >200 µg/mL |
| Nc1ccn(C[C@@H](CO)OCP(=O)(O)O)c(=O)n1 | ACV-resistant | plaque count | 0.027 µg/mL |
| O=c1[nH]c(=O)n([C@H]2C[C@H](O)[C@@H](CO)O2)cc1/C=C/Br | OKA | plaque count | 0.0005 µg/mL |
| Nc1nc2c(ncn2CCC(CO)CO)c(=O)[nH]1 | OKA | plaque count | 0.56 µg/mL |
| Nc1ncnc2c1ncn2[C@@H]1C=C(CO)[C@@H](O)[C@H]1O | YS/R (TK-) | cytopathic effect | 1.9 µg/mL |
| Nc1ncnc2c1ncn2[C@@H]1O[C@H](CO)[C@H]1CO | YS (TK+) | plaque count | 5.6 µM |
| Nc1nc2c(nnn2C[C@H]2CC[C@@H](CO)C2)c(=O)[nH]1 | YS | plaque count | >200 µg/mL |
| O=c1[nH]c(=O)n([C@H]2C[C@H](O)[C@@H](CO)O2)cc1-c1ccc(Cl)s1 | YS/R (TK-) | plaque count | >58 µM |
| O=c1[nH]c(=O)n([C@@H]2O[C@H](CO)[C@@H](O)[C@@H]2O)cc1/C=C/Br | PCV-resistant/B | plaque count | 0.00019 µg/mL |
| Nc1nc(N)c2ncn(C[C@H]3CC[C@@H](CO)C3)c2n1 | YS/R (TK-) | plaque count | >50 µg/mL |
| O=C(O)P(=O)(O)O | PFA-resistant/B | plaque count | 82.3 µg/mL |
| Nc1ncnc2c1ncn2CCOCP(=O)(O)O | Oka BVDU-resistant | cytopathic effect | 27.5 µM |

2 of the rows above, restated:

| structure | strain or isolate | method | value |
|---|---|---|---|
| Nc1ccn(C[C@@H](CO)OCP(=O)(O)O)c(=O)n1 | ACV-resistant | plaque count | 0.027 µg/mL |
| O=C(O)P(=O)(O)O | PFA-resistant/B | plaque count | 82.3 µg/mL |

Neighbouring rows are from separate reports.